PubChem BioAssay AID1224833, University of Georgia, 2016
Shown is an unselected part of about 12,000 reagents. Of all reagents, about 5,600 (46%) got an active call. 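Active calls cover z-scores past 1 in both directions, so they include lowered as well as raised rotavirus replication.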 A number with no mark means an inactive call. No sequences are given here.

Assay: 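Human genes whose knock-down alters rotavirus replication in monkey cells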 (primary screen)
Cells: monkey MA104 kidney cells
Reagent: siRNA pool against human genes, 50 nM
Timing: 48 h knock-down before infection; read 24 h after infection
Challenge: infection with rotavirus strain RV3 two days after transfection; infectious dose for this stage not given
Measurement: 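Rotavirus antigen per well by fluorescent immunoassay, normalised to non-targeting control wells on each plate and given as a standard z-score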
Reading the numbers: z-score vs non-targeting control: higher = more rotavirus replication than with non-targeting control
Call rule: In these data the active calls have z-score vs non-targeting control at about -1 or lower, or at about 1 or higher
Meaning of the calls: active = z-score beyond 1 either way; inactive = z-score within 1 of zero

no.	gene	z-score vs non-targeting control
1	NNT	-0.798
2	CRELD1	-0.821
3	TGS1	1.89 (active)
4	PLA2R1	-0.791
5	DORIP1	-0.794
6	TMEM150C	2.37 (active)
7	OR9Q1	-1.03 (active)
8	NUP133	0.964
9	NOP53	-1.61 (active)
10	OR4B1	-0.456
11	MTMR11	-0.28
12	MCM3AP	-0.273
13	RHBDF1	-0.312
14	UBC	-5.76 (active)
15	FMR1	-1.48 (active)
16	DYNC1I1	3.21 (active)
17	ZNF473	-1.46 (active)
18	PYGO2	-0.0285
19	SPG21	0.883
20	SOAT2	-2.92 (active)
21	MXD4	-1 (active)
22	SKIL	0.839
23	TSPYL1	-0.997
24	TCEA2	-2.32 (active)
25	WDR11	1.34 (active)
26	MAB21L2	2.31 (active)
27	FANCA	0.588
28	TNFRSF4	0.582
29	TMEM35A	0.639
30	SIGLEC11	0.538
31	MED16	2.05 (active)
32	BBC3	-0.903
33	KAT6A	-0.93
34	MATN4	0.641
35	SHISA2	-1.08 (active)
36	USP21	0.972
37	KLRC4	-3.5 (active)
38	PRELID1	-0.46
39	AMBP	-0.822
40	CCDC85A	0.78
41	COPS2	-1.83 (active)
42	RPL11	-5.82 (active)
43	FRRS1L	-0.58
44	LOXL4	-0.661
45	OR5D13	0.0029
46	ARL6IP5	0.0229
47	LHX5	0.893
48	CNN1	-0.244
49	RHBG	0.922
50	NARS2	-0.744
51	D2HGDH	1.45 (active)
52	C1QC	-0.276
53	RANGAP1	-0.696
54	GFER	-0.86
55	COPS7B	-0.235
56	HSPB2	-0.851
57	MPLKIP	1.57 (active)
58	CFAP65	-0.556
59	RPS4Y2	1.11 (active)
60	OR6C70	-0.799
61	TEX28	0.327
62	ENTPD4	-1.84 (active)
63	RPL26L1	0.0648
64	TRAK1	0.133
65	GTF2IRD1	-1.82 (active)
66	DEFB123	0.202
67	EVA1C	-0.393
68	LRRN4CL	-1.18 (active)
69	GRM7	-0.658
70	GPBAR1	-0.738
71	OR52I2	-1.77 (active)
72	SPACA5B	-1.14 (active)
73	RABAC1	-0.0709
74	CLEC9A	0.779
75	MTDH	-0.498
76	TUBGCP4	-0.919
77	MYH3	0.203
78	CD46	-0.548
79	SMU1	0.242
80	OLFM3	0.0954
81	YPEL1	-0.721
82	SMPD3	-0.634
83	ACAP1	0.592
84	GLDN	-0.477
85	FOXO1	-1.34 (active)
86	TIGD2	-0.744
87	ZNF114	0.535
88	ZNF311	-2.14 (active)
89	PGAP2	0.155
90	FAM156A	-0.945
91	SRPRB	1.08 (active)
92	NCS1	-2.09 (active)
93	MYL9	-0.172
94	SERPINA10	-1.19 (active)
95	HBE1	1.05 (active)
96	NR1D2	1.43 (active)
97	RNASE3	0.823
98	ST3GAL5	1.21 (active)
99	REXO4	0.587
100	ZBTB11	0.755
101	GPRASP3	0.627
102	SMPD4	0.87
103	FOXK2	0.648
104	URB1	-0.527
105	ICA1L	0.242
106	APH1A	-0.463
107	ENPP1	-2.76 (active)
108	FBN1	-1.26 (active)
109	RANBP9	-0.976
110	ZNF341	-0.68

Single entries from the list.
MED16, z-score vs non-targeting control → 2.05 (active)
For “z-score vs non-targeting control”, MYL9 reads -0.172
SMPD4, z-score vs non-targeting control: 0.87
TUBGCP4, z-score vs non-targeting control: -0.919
RPL11, z-score vs non-targeting control = -5.82 (active)
HBE1, z-score vs non-targeting control = 1.05 (active)
